Results on one sequence are retold here after patent US9724383B2, “Stabilized trimeric HIV-1 GP41 fusion inhibitor polypeptides comprising the N-terminal heptad repeat (NHR) and foldon (FD) trimerization motif” (New York Blood Center, Inc., priority 2009, dated 2017).

The target of the data set is CHR-peptide C34 (Human immunodeficiency virus type 1 group M subtype B, UniProt P04578). The class given is binding, HIV-1. The following applies: molar ratio 1:1, 10 μM in PBS pH 7.2; Fd spectrum subtracted for Fd fusions. The protocol: All the N-peptides were diluted in ddH2O (pH 7.0) and all the C-peptides or the mixture of the N- and C-peptides were diluted in 50 mM sodium phosphate and 150 mM NaCl (PBS, pH 7.2) to a final concentration of 10 μM. The individual peptides and their mixtures were incubated in a 37° C. water bath for 0.5 h before testing. […] The α-helicity was calculated from the CD signal by dividing the mean residue ellipticity at 222 nm by the value expected for 100% helix formation (i.e., 33,000° cm^2 dmol^−1) according to previous studies. Thermal denaturation of the samples was monitored at 222 nm by applying a temperature gradient from 20° C. to 98° C. with a 2-degree interval, an equilibration time of 1.5 min, and an averaging time of 60 s. The midpoint of the thermal unfolding transition (Tm) values was calculated using Jasco software utilities as described previously.

Take “IEAQQHLLQLTVWGIKQLQARILAVERYGYIPEAPRDGQAYVRKDGEWVLLSTFL [N28Fd]”: the “α-helicity of complex with C34” value is on record as 46.3%.
